Assays:
[1] = system: virus of influenza, type A, (H1N1); assay: Virucidal activity, virus titre in allantoic liquid by hemagglutination reaction; conditions: 1% solution
Virus of hepatitis B = assay: Virucidal activity, HBsAg titre in serum after exposure; conditions: 1% solution in 0.85% sodium chloride solution
ascarid ovi [2] = assay: Ovocidal activity, production test, disinfection of ambient objects; conditions: 3% aqueous solution
ascarid ovi [3] = assay: Ovocidal activity, laboratory test on ascarid ovi on a watch glass; format: in vivo, pig.ascarid; conditions: 3% aqueous solution

| Compound | Death of viruses (%) at 30 minutes exposure, Virus of influenza A [1] | Death of viruses (%) at 30 minutes exposure, Virus of hepatitis B (Virus of hepatitis B) | Death of ascarid ovi, % Tests production (ascarid ovi [2]) | Death of ascarid ovi, % Tests laboratory (ascarid ovi [3]) |
| --- | --- | --- | --- | --- |
| di-[d(-)-threo-3-para-nitrophenyl-2-di- chloracetamido-3-hydroxypropyl ether]d(+)-threo-1-para--nitrophenyl-1,3-dihydroxyisopropylamidophosphoric acid | 100% | 100% |  |  |
| CCOP(=O)(O)NC(CO)C(O)c1ccc([N+](=O)[O-])cc1 (stereo not drawn) [Example 29, 1-para-nitrophenyl-1,3-propanediolamidophos-phoric acid ethyl ether] |  |  | 97% |  |
| CCOP(=O)(O)NC(CCl)C(Cl)c1ccc([N+](=O)[O-])cc1 (stereo not drawn) [Example 31, 1-para-nitrophenyl-1,3-dichloropropanamidophosphor-ic acid ethyl ether] |  |  | 98% |  |
| CCOP(=O)(O)NC(CCl)C(O)c1ccc([N+](=O)[O-])cc1 (stereo not drawn) [Example 30] |  |  | 99% |  |
| COP(=O)(O)NC(CCl)C(Cl)c1ccc([N+](=O)[O-])cc1 (stereo not drawn) |  |  | 100% | 100% |
| COP(=O)(O)NC(CO)C(O)c1ccc([N+](=O)[O-])cc1 (stereo not drawn) |  |  | 99% | 100% |
| COP(=O)(O)NC(CCl)C(O)c1ccc([N+](=O)[O-])cc1 (stereo not drawn) |  |  | 98% | 100% |
| CNC(=S)S [Known ovocidal preparation (carbathion), sodium N-methyldithiocarbamate dihydrate, reference compound] |  |  | 78% |  |

Reference: patent EP0404945A1 (priority 1989, dated 1990)
